Measured values taken from ChEMBL document CHEMBL4052757, “Bistacrines as potential antitrypanosomal agents” (Bioorg Med Chem, 2017).

The chains behind the UniProt entries cited, without tags or fusion partners. Where a name states a change or a piece, a line headed by the entry shows the natural chain unless it says otherwise. Residues count along the entry.
UniProt Q95PM0, 1-450: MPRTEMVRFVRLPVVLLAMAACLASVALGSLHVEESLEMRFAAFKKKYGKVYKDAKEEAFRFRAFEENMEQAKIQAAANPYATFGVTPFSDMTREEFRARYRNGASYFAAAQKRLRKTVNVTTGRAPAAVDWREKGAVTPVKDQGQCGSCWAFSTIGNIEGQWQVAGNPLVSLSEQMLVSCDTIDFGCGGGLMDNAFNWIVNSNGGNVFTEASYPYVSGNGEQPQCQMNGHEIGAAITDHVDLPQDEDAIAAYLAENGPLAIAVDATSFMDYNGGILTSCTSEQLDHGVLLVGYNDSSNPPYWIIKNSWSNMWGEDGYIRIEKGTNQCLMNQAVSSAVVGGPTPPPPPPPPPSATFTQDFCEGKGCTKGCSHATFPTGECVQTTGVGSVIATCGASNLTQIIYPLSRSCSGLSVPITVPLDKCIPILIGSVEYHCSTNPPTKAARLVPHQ
UniProt P28593: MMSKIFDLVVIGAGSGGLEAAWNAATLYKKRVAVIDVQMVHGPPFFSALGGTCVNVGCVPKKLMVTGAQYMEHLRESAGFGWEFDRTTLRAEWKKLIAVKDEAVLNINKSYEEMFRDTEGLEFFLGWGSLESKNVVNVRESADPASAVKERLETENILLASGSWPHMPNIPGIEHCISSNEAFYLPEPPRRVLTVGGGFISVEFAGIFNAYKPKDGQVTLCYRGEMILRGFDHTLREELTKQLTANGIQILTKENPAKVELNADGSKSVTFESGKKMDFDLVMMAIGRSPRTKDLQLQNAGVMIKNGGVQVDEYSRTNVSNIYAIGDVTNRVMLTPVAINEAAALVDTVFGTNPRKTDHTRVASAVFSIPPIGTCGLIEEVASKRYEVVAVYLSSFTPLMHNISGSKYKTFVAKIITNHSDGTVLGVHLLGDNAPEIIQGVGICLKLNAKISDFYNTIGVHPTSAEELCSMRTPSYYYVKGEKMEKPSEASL

Legend:
[1] = system: Trypanosoma brucei brucei; assay: Antitrypanosomal activity against Trypanosoma brucei brucei TC221 after 72 hrs by alamar blue assay
[2] = system: Trypanosoma brucei brucei; assay: Antitrypanosomal activity against Trypanosoma brucei brucei TC221 after 48 hrs by alamar blue assay
[3] = Selectivity index, ratio of IC50 for mouse J774.1 cells to IC50 for Trypanosoma brucei brucei TC221 measured after 48 hrs
[4] = Inhibition of Trypanosoma brucei trypanothione reductase using varying levels of trypanothione disulfide as substrate by Lineweaver-burk plot analysis
Rhodesain = Rhodesain (Trypanosoma brucei rhodesiense, UniProt Q95PM0); assay: Inhibition of Trypanosoma brucei rhodesiense rhodesain using Cbz-Phe-Arg-AMC as substrate measured for 10 mins by spectrofluorometric analysis
Trypanothione reductase = Trypanothione reductase (Trypanosoma cruzi, UniProt P28593); assay: Competitive inhibition of Trypanosoma cruzi trypanothione reductase using varying levels of trypanothione disulfide as substrate by Lineweaver--burk plot analysis
[5] = Inhibition of human glutathione reductase at 2 uM using glutathione disulfide as substrate relative to control
[6] = Inhibition of human glutathione reductase at 50 uM using glutathione disulfide as substrate relative to control

Row | SMILES | IC50 [1] | IC50 [2] | Ratio IC50 [3] | Ki [4] | IC50 (Rhodesain) | Ki (Trypanothione reductase) | inhibition (INH) [5] | inhibition (INH) [6]
1 | c1ccc2c(NCCNc3c4c(nc5ccccc35)CCCC4)c3c(nc2c1)CCCC3 | 5.1 µM | 3.6 µM | 12.6 | – | – | – | – | –
2 | c1ccc2c(NCCCNc3c4c(nc5ccccc35)CCCC4)c3c(nc2c1)CCCC3 | 5.6 µM | 3.3 µM | 12.9 | – | – | – | – | –
3 | c1ccc2c(NCCCCCCCCCNc3c4c(nc5ccccc35)CCCC4)c3c(nc2c1)CCCC3 | 0.16 µM | 0.13 µM | 13.8 | 0.4 µM | 19.4 µM | 0.4 µM | 2% | 19%
4 | c1ccc2c(NCCCCNc3c4c(nc5ccccc35)CCCC4)c3c(nc2c1)CCCC3 | 2.1 µM | 0.75 µM | 11.1 | – | – | – | – | –
